Measurements reported in patent publication US7374875, “Peptides having affinity for the gp120 viral protein and use thereof” (dated 2008).

Columns and labels:
[1] = molecular target: recombinant viral envelope protein gp120LAI (HIV-1 strain LAI), P03377; assay: competition ELISA, peptide against soluble CD4 on rgp120LAI
[2] = molecular target: recombinant viral envelope protein gp120HXB2 (HIV-1 strain HXB2), P04578; assay: competition ELISA, peptide against soluble CD4 on rgp120HXB2

VSCTTSKECWSVCQRLHNTSKGGCQGSFCTCGP (modifications not checked) [CD4M0]
IC50 [1]: 40000 nM

CNLARCQLRCKSLGLLGKCAGSFCACGP (modifications not checked) [CD4M9]
IC50 [1]: 400 nM
IC50 [2]: 90 nM

CNLARCQLRCKSLGLLGKCAGSFCACV (modifications not checked) [CD4M9V]
IC50 [1]: 300 nM
